Results on five compounds are retold here after patent US12029748B2, “Synergistic composition for maintenance of healthy balance of microflora” (KIMBERLY-CLARK WORLDWIDE, INC., priority 2017, dated 2024).

In the data set the test system is L. crispatus and E. coli. Nature of the data set: Therapeutic Effect Protocol: L. crispatus / E. coli co-culture, ratio after 36 hours. Type of data set: cell-based, Lactobacillus crispatus; E. coli. The note with it: pH of test solution 36 hours after inoculation; for F pH (final pH), 0.10%: nitrogen compound 0.10 wt/vol % with 1.0 wt/vol % α methyl-D glucoside; for F pH (final pH), 0.50%: nitrogen compound 0.50 wt/vol % with 1.0 wt/vol % α methyl-D glucoside; for F pH (final pH), 1.00%: nitrogen compound 1.00 wt/vol % with 1.0 wt/vol % α methyl-D glucoside. On the procedure: As used herein the term “therapeutic effect” refers to the ability of the compositions and formulations of the present invention to stimulate the growth of Lactobacillus relative E. coli measured according to the Therapeutic Effect Protocol described below. Generally, therapeutic effect is expressed as a ratio of Lactobacillus to E. coli and is desirably greater than about 2, more preferably greater than about 20 and more desirably greater than about 100.
The data in Table 1 was tested according to the Therapeutic Effect Protocol as described further herein. The nitrogen compounds were tested for their therapeutic efficacy at three different concentrations when combined with α methyl-D glucoside (1% wt/vol %). The concentrations of the nitrogen containing compounds that were tested were 1% wt/vol %, 0.5% wt/vol %, and 0.1% wt/vol %.
Colonies of L. crispatus and E. coli were prepared as follows. A colony of L. crispatus was transferred to 7 ml de Man, Rogosa & Sharpe (MRS) broth and incubated anaerobically (using BD GasPak EZ anaerobe container system with indicator) at 37° C. without shaking for 18-20 hours. A colony of E. coli was transferred to 5 ml Tryptic Soy Broth (TSB) and incubated aerobically (shaking at 100 rpm) at 37° C. for 18-20 hours.
Colonies were then inoculated as follows. Bacterial cultures were gently vortexed and 1 mL of each culture was transferred to a corresponding 2.0 mL micro-centrifuge tube and then centrifuged for two minutes at 14,500 rpm. The cultural supernatant was removed and the cell pellet was re-suspended in 1 mL of 0.95% (wt/vol %) saline. […] For L. crispatus, the pellet was re-suspended in 1 mL of 0.95% saline to achieve ˜10^7-10^8 cfu/mL. For E. coli, the pellet was re-suspended in 1 mL of 0.95% saline to achieve ˜10^8-10^9 cfu/mL.
Media were prepared as follows.
All of the ingredients in Table 2 were combined and the pH was adjusted to 6.5. […] To evaluate the effect of various nitrogen containing therapeutic agents on the growth of bacteria, the LAPT-g media, prepared as described above, was supplemented with various nitrogen containing compound therapeutic agents to a final test concentration between 0.1 and 1.0%. As initial screening measures, solubility and initial pH of each composition were checked. If a specific composition was insoluble (as detected by visual indication of precipitates or turbidity), then no further therapeutic efficacy testing was undertaken on that composition. Additionally, if the initial pH of the composition was below 5.5 (“Low”) or was above 6.5 (“High”), then no further therapeutic efficacy testing was undertaken on that composition.
Five milliliters (5 mL) of each medium was transferred to a test tube in duplicates for subsequent inoculation. A master mixture of L. crispatus and E. coli, prepared as described above, was prepared in 1,000:1 ratio. Each (5 ml) test tube was inoculated with the master mixture to give 10^5-10^6 total CFU L. crispatus and 100-1,000 total CFU E. coli per tube.
To establish a negative control, one tube was vortexed and 100 μL was removed to determine the initial cell concentrations by serial dilutions and plating (2 plates per dilution). L. crispatus is selected on MRS agar plates incubated anaerobically at 37° C. for two days. E. coli is selected on TSA plates incubated aerobically at 37° C. for one day. The co-cultures were incubated in an anaerobic container with BD GasPaks at 37° C. for 36 hours.
The effect of the α methyl-D glucoside and the nitrogen containing compound therapeutic agents on the ratio of L. crispatus to E. coli was measured 36 hours after inoculation and a final pH of the test solutions was recorded. The co-culture tube was vortexed and 100 μL was removed to determine the final cell concentrations by serial dilutions and plating (2 plates per dilution). L. crispatus is selected on MRS agar plates incubated anaerobically at 37° C. for two days.

Each structure is given as a SMILES string.

`CC(=O)N[C@H]1C(O)O[C@H](CO)[C@H](O)[C@@H]1O` (stereo partly drawn) [N-Acetyl-D-Galactosamine]: the “F pH (final pH), 0.10%” value is 3.5; the “F pH (final pH), 0.50%” value turned out to be 4.5; the “F pH (final pH), 1.00%” value is recorded as 5.5.
The corresponding values for `CC(=O)N[C@H]1C(O)O[C@H](CO)[C@@H](O)[C@@H]1O` (stereo partly drawn) [N-Acetyl-D-Glucosamine] are 3.5, 3 and 3.5.
As to `CC(=O)N[C@@H]1C(O)O[C@H](CO)[C@@H](O)[C@@H]1O` (stereo partly drawn) [N-Acetyl-D-Mannosamine], the “F pH (final pH), 0.10%” value stood at 5; the “F pH (final pH), 0.50%” value turned out to be 5; the “F pH (final pH), 1.00%” value turned out to be 5.
`c1cncnc1` [Pyrimidine]: the “F pH (final pH), 0.10%” value amounted to 3.5; the “F pH (final pH), 0.50%” value amounted to 4; the “F pH (final pH), 1.00%” value came out at 4.5.
`O=c1cc[nH]c(=O)[nH]1` [Uracil]: the “F pH (final pH), 0.10%” value stood at 4.5.
